These are literature values, as cited in US6340461B1 (priority 1996, dated 2002).

The subject of the data set is T cells. Particulars: cited from earlier work.

With “N-Ser-Glu-Lys-Ser-Glu-Glu-Ile-Asn-Glu-Lys-Asp-Leu. Arg Lys-Lys-Ser-Glu-Leu-Gln-Gly-Thr-Ala-Leu-Gly-Asn-Leu-Lys-”, the “effect on SEA induced T cell proliferation and production of interferon γ” value is “blocks SEA induced T cell proliferation and production of interferon γ”.
